Test results taken from patent publication US20100255521A1, “Fluorescent substrates for Detecting organophosphatase enzyme activity” (published 2010).

By UniProt entry, the sequences of proteins in these tests, tags left out. Where a name states a change or a piece, a line headed by the entry shows the natural chain unless it says otherwise.
UniProt P27169: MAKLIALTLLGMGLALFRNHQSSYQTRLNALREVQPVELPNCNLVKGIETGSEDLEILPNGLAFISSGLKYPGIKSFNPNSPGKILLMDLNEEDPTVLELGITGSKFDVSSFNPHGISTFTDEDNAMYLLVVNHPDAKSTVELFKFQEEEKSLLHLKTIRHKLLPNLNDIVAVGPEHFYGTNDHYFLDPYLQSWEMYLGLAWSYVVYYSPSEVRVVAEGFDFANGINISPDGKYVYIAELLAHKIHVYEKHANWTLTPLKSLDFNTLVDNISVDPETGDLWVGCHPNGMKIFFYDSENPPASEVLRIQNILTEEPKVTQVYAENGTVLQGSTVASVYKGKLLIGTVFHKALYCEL

Legend:
human paraoxonase = human paraoxonase (Homo sapiens, UniProt P27169); conditions: read-out: Km of human paraoxonase for paraoxon; reference [9]; cited from earlier work
OPH = OPH (Brevundimonas diminuta, UniProt P0A434); assay: OPH detection sensitivity and kinetics of OPH mediated hydrolysis (Example 7)

CCOP(=O)(OCC)Oc1ccc([N+](=O)[O-])cc1
Km (human paraoxonase): 500 µM
catalytic rate (kcat) of OPH mediated hydrolysis (OPH): 670 s⁻¹
kcat for paraoxon relative to kcat for DEPFMU (OPH; OPH): more than 10 times
